Data from patent publication US10174401B2, “Methods for binding and precipitating gold using microbial-derived metallophores and their uses” (McMaster University, priority 2013, dated 2019).

System: D. acidovorans
Design: species or system Delftia acidovorans

## C/C=C(/NC(=O)CNC(=O)C(C)NC(=O)C(NC(=O)C(C)C(O)C(C)N)C(C)C(=O)O)C(=O)NC(CCCN(O)C=O)C(=O)NC(C)C(=O)NC(CCCNC(=N)N)C(=O)NC1CCCN(O)C1=O (stereo not drawn) [delftibactin A] (X1-[ξAsp(βξ-Me)]AG[X2][ξOrn(N(OH)CHO)]AR-{NH(1-OH-2-oxopiperidin-3-yl)}; configuration not given here)
D. acidovorans culture
  concentration in supernatants: > 200 µM
Media [Iron] 0, 48 h
  [Delftibactin]: 205.8 ± 28.0 µM
Media [Iron] 100 nM, 48 h
  [Delftibactin]: 196.1 ± 30.7 µM
Media [Iron] 1 μM, 48 h
  [Delftibactin]: 149.3 ± 21.0 µM
Media [Iron] 10 μM, 48 h
  [Delftibactin]: 21 ± 9.4 µM
Media [Iron] 100 μM, 48 h
  [Delftibactin]: 2.2 ± 1.4 µM

Like-named read-outs stand apart in the source and are kept apart here. *1 amine or outer side, *2 acyl side, *3 side chain or, on linkers, in order; H or OH if unused. Where a SMILES comes first, the peptide text is derived from it. [ ]: non-standard residue; d: D form. The star is where a group is joined. ξ: configuration not given here. NH(1-OH-2-oxopiperidin-3-yl) = O=C1C(N*)CCCN1O; ξOrn(N(OH)CHO) = NC(CCCN(O)C=O)C(=O)O; ξAsp(βξ-Me) = CC(C(=O)O)C(N)C(=O)O; X2 = C/C=C(/N[*:1])C(=O)[*:2]; X1 = CC(N)C(O)C(C)C(=O)*
